# Results published in paper PMC7526519.
# Target: SARS-CoV-2 receptor binding domain (RBD), His-tagged (SARS-CoV-2) (UniProt P0DTC2)
# Test: SPR
# Details: Fc fusion
row,Substance,Kd
1,fox ACE2 ectodomain fused with mouse Fc,40.6 nM
2,little brown bat ACE2 ectodomain fused with mouse Fc,312 nM
